Measurements reported in PubChem BioAssay AID1259414 (Drosophila RNAi Screening Center, 2018)

Test: 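Host factors increasing or decreasing Wolbachia levels in cultured fly cells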 (primary screen)
Cells: Drosophila JW18 cells infected with Wolbachia
Reagents: long dsRNA against Drosophila genes, 0.25 µg dsRNA per well of a 384-well plate
Timing: 5 days
Conditions: cells persistently infected with Wolbachia before knock-down; no added drug
Detection: 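Imaged fluorescence in situ signal for Wolbachia 23S rRNA per DAPI-counted host cell, given as a robust z-score within each plate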
Scale: Wolbachia per cell robust z: higher = more Wolbachia per host cell than the plate typical
Active means: 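Active if absolute robust z reaches 1.5 in two or more of three replicates, leaving out multi- or no-target dsRNAs, genes unexpressed in JW18 and A1 wells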
In all, the deposit lists about 24,000 reagents; shown is an unselected part of those with a known target gene and a result. Of all reagents, about 1,210 (5%) were called active. 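Inactive calls also include excluded dsRNAs with several or no targets, genes unexpressed in JW18, and well A1, regardless of score.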 Unmarked entries are inactive. Names joined by + are all predicted targets of the reagent. No sequences are given here.

gene knocked down	dsRNA	Wolbachia per cell robust z, rep 1	Wolbachia per cell robust z, rep 2	Wolbachia per cell robust z, rep 3
Acbp3	DRSC11022	-2.41	-0.207	-1.07
Acbp3	DRSC25356	-0.0204	0.12	0.161
Sytbeta	DRSC10009	-0.92	-0.00143	0.733
Sytbeta	DRSC10351	-0.3	-1.48	-0.9
AP-2mu	DRSC14090	0.883	-0.197	0.231
AP-2mu	DRSC28264	0.866	1.04	1.23
tio	DRSC03739	0.812	0.431	-1.69
tio	DRSC41362	0.713	0.895	0.282
lncRNA:CR43151	DRSC40509	-0.286	-1.79	-1.6
wts	DRSC22975	-1.47	-2.48	-0.999
wts	DRSC25766	-0.861	0.00451	-1.41
Cftr	DRSC15872	-2.66 (active)	-7.55	0.225
Cftr	DRSC24655	-0.45	0.241	-0.0362
CG34384	DRSC12642	0.866	0.583	0.875
CG34384	DRSC14855	-5.1	1.33	-0.639
CG34384	DRSC15444	-0.00594	-0.426	-1.84
CG34384	DRSC16575	0.162	-0.685	-2.28
Acp53C14c	DRSC38868	-0.593	0.391	-0.39
vlc	DRSC04922	0.504	1.12	0.63
Acox57D-p	DRSC04560	0.362	-1.17	0.0252
Tsp96F	DRSC14147	-0.149	-0.245	1.34
CG13965	DRSC02307	0.00481	-0.86	-0.622
ppk28	DRSC19919	0.366	-0.763	-3.92
sqd	DRSC15160	0.485	0.0258	0.37
sqd	DRSC17066	0.62	-1.15	0.888
sqd	DRSC22954	0.929	0.384	-0.659
sqd	DRSC27200	-0.515	0.232	-6.12
sqd	DRSC29779	-7.58	0.748	-1.05
CG8745	DRSC11033	-0.11	-5.7	0.388
CG8745	DRSC11034	0.0895	-0.236	-2.64
CG8745	DRSC22741	0.258	0.765	-0.314
CG14143	DRSC10146	0.359	0.185	0.0051
CG14143	DRSC26503	-0.757	-0.351	-0.821
CG14841	DRSC14965	0.0969	-0.926	-0.627
CG14841	DRSC27235	-0.165	-1.14	-0.285
lva	DRSC18403	-0.264	-0.626	0.513
lva	DRSC27594	1.59	-0.747	0.83
LManII	DRSC01986	0.0037	-1.47	-0.444
twf	DRSC15466	0.9	0.519	-0.476
skl	DRSC10050	0.989	-1.21	1.26
sd	DRSC20370	-4.42	1.02	0.906
sd	DRSC37640	-0.904	-1.58	-0.95
CG13992	DRSC02324	0.199	0.131	0.44
Nrg	DRSC17573	-0.733	-0.928	-2.52
Nrg	DRSC18688	1.94	-0.0301	-0.51
Nrg	DRSC27797	-0.446	-0.78	-0.797
mam	DRSC05468	-0.599	-0.246	-0.416
mam	DRSC22971	0.403	0.634	1.29
mam	DRSC25768	-3.33	0.359	0.25
SNRPG	DRSC20207	-4.12	0.984	0.733
CG13605	DRSC14608	0.186	0.153	0.694
Sgs3	DRSC11280	-0.66	-0.42	0.572
Sgs3	DRSC28210	1.01	-0.631	-2.38
Sgs3	DRSC38946	-0.347	-1.6	-1.17
CG9902	DRSC20212	-0.284	-0.51	0.49
CG9902	DRSC24871	-0.111	-1.1	-0.324
Nepl5	DRSC03241	-6.36	0.579	-0.496
Nepl5	DRSC29153	-0.377	0.546	-0.738
CG14715	DRSC14938	1.04	0.36	-5.14
Chi	DRSC04602	-0.948	1.08	-0.948
Chi	DRSC28484	-1.63	0.496	-0.447
lncRNA:CR9162	DRSC03151	-6.21	0.253	-5.43
alpha-Catr	DRSC04669	-0.177	-3.97	-2.08
alpha-Catr	DRSC28046	-0.219	0.796	1.26
CG6040	DRSC15954	-0.0841	-0.777	0.729
CG6040	DRSC26100	-0.574	0.303	-0.286
Tcs1 + Polr3K	DRSC05988	0.0229	0.443	0.854
RpL37A	DRSC02899	1.96 (active)	3.23	1.66
RpL37A	DRSC25051	1.71 (active)	4.44	3.7
